Only a part is listed here, and it is no random draw. Some structures show a salt or complex split into parts, the way the source records it. Calls of active or inactive are those of the source.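 How the source made its calls: active means inhibition of at least 50% in every replicate; inconclusive means best replicate reaches 50% inhibition but some replicates fall short; inactive means the rest.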
target: Histone acetyltransferase RTT109 (Candida albicans (strain SC5314 / ATCC MYA-2876)) (UniProt Q5AAJ8); test: inhibitors of C. albicans Rtt109/Vps75 HAT, primary screen, biochemical, ThioGlo CoA-SH fluorescence, plate reader (AID 540336); conditions: purified Rtt109/Vps75, ThioGlo CoA-SH fluorescence, 4 h; at 34.9 µM; hits give high values

The chains behind the UniProt entries cited, without tags or fusion partners.
UniProt Q5AAJ8, whole entry: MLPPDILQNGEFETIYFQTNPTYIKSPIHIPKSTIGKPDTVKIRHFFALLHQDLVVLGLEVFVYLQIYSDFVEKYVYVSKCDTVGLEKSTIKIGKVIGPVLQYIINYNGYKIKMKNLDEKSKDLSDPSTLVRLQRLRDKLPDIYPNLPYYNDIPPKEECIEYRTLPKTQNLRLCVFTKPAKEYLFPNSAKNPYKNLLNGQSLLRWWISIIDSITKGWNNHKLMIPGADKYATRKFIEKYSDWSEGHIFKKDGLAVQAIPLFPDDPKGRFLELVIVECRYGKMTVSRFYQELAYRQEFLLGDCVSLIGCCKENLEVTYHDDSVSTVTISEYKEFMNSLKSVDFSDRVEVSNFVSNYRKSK

Structure (SMILES)	inhibition
COc1ccccc1OP(C)(=O)Nc1ccccc1 (stereo unspecified)	inactive: 11.6%
CP(=O)(Nc1ccccc1Br)Oc1ccccc1 (stereo unspecified)	inactive: -8.36%
CP(=S)(Nn1cnnc1)Oc1ccccc1 (stereo unspecified)	inactive: -4.19%
CCc1ccc(OP(C)(=O)N2CCN(c3ccc([N+](=O)[O-])cc3)CC2)cc1 (stereo unspecified)	inactive: -2.69%
CP(=O)(NC(=O)Nc1ccccc1)Oc1ccccc1 (stereo unspecified)	inactive: -9.36%
Cc1cc(C)cc(OP(C)(=O)Nc2ccc(SC(F)(F)F)cc2)c1 (stereo unspecified)	inactive: 18.8%
Cc1cccc(C)c1OP(C)(=O)Nc1ccc(SC(F)(F)F)cc1 (stereo unspecified)	inactive: -9.18%
CP(=O)(Oc1ccccc1)OC(c1ccccc1)C(F)(F)F (stereo unspecified)	inactive: -6.93%
CP(=O)(Nc1ccccn1)Oc1ccc(Cl)cc1 (stereo unspecified)	inactive: -4.07%
CCOP(C)(=S)SCC(=O)NC(C)C(=O)O (stereo unspecified)	inactive: -5.2%
CCOC(=O)c1ccc(NP(C)(=O)Oc2ccc(OC)cc2)cc1 (stereo unspecified)	inactive: 4.77%
CCN(CC)CCCOC(=O)C(O)(c1ccccc1)c1ccccc1	inactive: -5.5%
CC(C)(C)c1ccc(OP(C)(=O)Nc2ccc(SC(F)(F)F)cc2)cc1 (stereo unspecified)	inactive: -2.45%
Cc1cccc(C)c1OP(C)(N)=O (stereo unspecified)	inactive: 2.35%
O=[N+]([O-])c1ccc2c(c1)C=Nc1ccccc1O2	inactive: -1.19%
O=[N+]([O-])c1cc([N+](=O)[O-])c(Nc2cccnc2)c([N+](=O)[O-])c1	inactive: -0.689%
COc1ccccc1OP(C)(=O)Nc1cc(Cl)ccc1C (stereo unspecified)	inactive: 2.04%
COc1ccc(OP(C)(=O)Nc2cccc(F)c2)cc1 (stereo unspecified)	inactive: -0.739%
Cc1cc(C)cc(OP(C)(N)=O)c1 (stereo unspecified)	inactive: -1.82%
CCOC(=O)c1ccc(NP(C)(=O)Oc2ccccc2)cc1 (stereo unspecified)	inactive: -1.59%
COc1ccccc1OP(C)(=O)Nc1ccc(C)cc1 (stereo unspecified)	inactive: 4.29%
Cc1ccc(NP(C)(=O)Oc2ccccc2)c(C)c1 (stereo unspecified)	inactive: -2.09%

Structure (SMILES)	inhibition
O=C(O)c1cccc(Nc2c([N+](=O)[O-])cc([N+](=O)[O-])cc2[N+](=O)[O-])c1	inactive: 16.3%
CC1=NCCc2c1[nH]c1ccccc21.O=[N+]([O-])c1cc([N+](=O)[O-])c(O)c([N+](=O)[O-])c1	inactive: -5.29%
CCOC(=O)c1ccc(NP(C)(=O)Oc2cc(C)cc(C)c2)cc1 (stereo unspecified)	inactive: -5.9%
COc1ccccc1OP(C)(=O)Nc1cccc(Br)c1 (stereo unspecified)	inactive: -2.03%
CP(=O)(Nc1cccc(Br)c1)Oc1ccccc1 (stereo unspecified)	inactive: -6.9%
Cc1cc(C)cc(OP(C)(=O)Nc2ccccn2)c1 (stereo unspecified)	inactive: -0.036%
Cc1ccc(C)c(NP(C)(=O)Oc2ccccc2)c1 (stereo unspecified)	inactive: 18.5%
O=[N+]([O-])c1cc([N+](=O)[O-])c(-n2nnc3ccccc32)c([N+](=O)[O-])c1	inactive: 4.49%
Cc1nc2ccc3ccccc3c2s1.O=[N+]([O-])c1cc([N+](=O)[O-])c(O)c([N+](=O)[O-])c1	inactive: 15.3%
O=[N+]([O-])c1cc([N+](=O)[O-])c(-c2cnn(-c3ccccc3)c2)c([N+](=O)[O-])c1	inactive: -2.11%
O=[N+]([O-])c1cc([N+](=O)[O-])c(Nc2nnnn2CCO)c([N+](=O)[O-])c1	inactive: -2.65%
CC1=C2N=C(C=C3N=C(C(C)=C4[N-][C@@](C)([C@@H]5N=C1[C@](C)(CCC(=O)NC[C@@H](C)OP(=O)([O-])O[C@H]1[C@@H](O)[C@@H](n6cnc7cc(C)c(C)cc76)O[C@@H]1CO)[C@H]5CC(N)=O)[C@@](C)(CC(N)=O)[C@@H]4CCC(N)=O)[C@@](C)(CC(N)=O)[C@@H]3CCC(N)=O)C(C)(C)[C@@H]2CCC(N)=O.[C-]#N.[Co+3]	inactive: 5.39%
CCOC(=O)C(CC)C1=NC(C)(C)Cc2ccccc21.O=[N+]([O-])c1cc([N+](=O)[O-])c(O)c([N+](=O)[O-])c1 (stereo unspecified)	inactive: -14.7%
CP(=O)(Nc1ccc(SC(F)(F)F)cc1)Oc1ccccc1 (stereo unspecified)	inactive: 11%
CCCOc1ccc(NP(C)(=O)Oc2ccc(Cl)cc2)cc1 (stereo unspecified)	inactive: 8.25%
COc1ccccc1OP(C)(=O)Nc1c(C)cccc1C (stereo unspecified)	inactive: 4.36%
CN1CCCCC1COC(=O)C1(O)c2ccccc2CCc2ccccc21 (stereo unspecified)	inactive: 13.6%
COc1ccc(NP(C)(=O)Oc2ccccc2OC)cc1 (stereo unspecified)	inactive: 2.68%
CN(C)CCOC(=O)C(O)(c1ccccc1)C1CCCCC1 (stereo unspecified)	inactive: -3.56%
COc1ccc(OP(C)(=O)Nc2cccc(Br)c2)cc1 (stereo unspecified)	inactive: 2.31%
Cc1c(C(c2ccc3c(c2)OCO3)c2c(C)n(C)n(-c3ccccc3)c2=O)c(=O)n(-c2ccccc2)n1C.O=[N+]([O-])c1cc([N+](=O)[O-])c(O)c([N+](=O)[O-])c1	inactive: -3.61%
O=[N+]([O-])c1cc([N+](=O)[O-])c(NCC2CCS(=O)(=O)C2)c([N+](=O)[O-])c1 (stereo unspecified)	inactive: 3.43%

Structure (SMILES)	inhibition
Cc1cc(-c2cccc3ccccc23)c(C)cn1.O=[N+]([O-])c1cc([N+](=O)[O-])c(O)c([N+](=O)[O-])c1	inactive: 13.6%
O=[N+]([O-])c1ccc(OP2(=O)COCCO2)cc1 (stereo unspecified)	inactive: -1.36%
CCOP(C)(=S)SCC(=O)NC(C)(CC)C(=O)O (stereo unspecified)	inactive: -12.6%
CP(=O)(Nc1ccc(SC(F)(F)F)cc1)Oc1ccc(F)cc1 (stereo unspecified)	inactive: 6.29%
Cc1ccccc1NP(C)(=O)Nc1ccccc1C	inactive: -4.81%
CP(=O)(Nc1ccc2c(c1)OCCO2)Oc1ccccc1 (stereo unspecified)	inactive: -2.1%
CC(C)c1ccc(OP(C)(=O)Nc2ccc(SC(F)(F)F)cc2)cc1 (stereo unspecified)	inactive: 8.11%
CP(=O)(Nc1ccccc1F)Oc1ccccc1 (stereo unspecified)	inactive: 1.73%
COc1ccc2c(c1O)-c1c(O)c(OC)cc3c1[C@H](C2)[N+](C)(C)CC3.O=[N+]([O-])c1cc([N+](=O)[O-])c([O-])c([N+](=O)[O-])c1[O-]	inactive: 4.42%
O=C(OCCN1CCN(CCOCc2ccccc2)CC1)C(O)(c1ccccc1)c1ccccc1	inactive: 5.97%
O=C(OC1CN2CCC1CC2)c1ccc([N+](=O)[O-])cc1 (stereo unspecified)	inactive: -9.47%
COc1ccc(OP(C)(=O)Nc2ccc(SC(F)(F)F)cc2)cc1 (stereo unspecified)	inactive: -0.514%
CCOC(=O)c1ccc(NP(C)(=O)Oc2ccc(F)cc2)cc1 (stereo unspecified)	inactive: -6.78%
O=[N+]([O-])c1cc([N+](=O)[O-])c(OC2CCCCC2O)c([N+](=O)[O-])c1 (stereo unspecified)	inactive: 0.421%
CCCCCOc1ccc(NP(C)(=O)Oc2ccc(Cl)cc2Cl)cc1 (stereo unspecified)	inactive: -2.77%
CCN(CC)CCCOC(=O)C(O)(c1ccccc1)C1CCCCC1 (stereo unspecified)	inactive: -12.9%
Cc1c([N+](=O)[O-])cc([N+](=O)[O-])c(Br)c1[N+](=O)[O-]	inactive: 2.44%
COc1ccc(OP(C)(=O)Nc2ccccc2Br)cc1 (stereo unspecified)	inactive: 2.81%
COc1ccccc1OP(C)(=O)Nc1ccc(C)c(C)c1 (stereo unspecified)	inactive: -2.7%
O=C1C(O)=C([N+](=O)[O-])C(=O)C(O)=C1[N+](=O)[O-]	inactive: 0.578%
Cc1cc(C)cc(OP(C)(=O)Nc2cccc(C(F)(F)F)c2)c1 (stereo unspecified)	inactive: 2%
CP(=O)(OCCOc1ccccc1)OCCOc1ccccc1	inactive: -3.08%

Structure (SMILES)	inhibition
CP(=O)(Nc1ccc(Cl)cc1Cl)Oc1ccccc1 (stereo unspecified)	inactive: -3.7%
CCCCCCCCCCCCCCCC1C[N+](C)(C)CCOP(C)(=O)O1 (stereo unspecified)	inactive: 0.535%
CN(C)CCOC(=O)C(O)(c1ccccc1)C1CCCC1 (stereo unspecified)	inactive: -4.4%
COc1ccc(OP(C)(=O)Nc2ccccn2)cc1 (stereo unspecified)	inactive: -1.86%
COc1ccccc1OP(C)(=O)Nc1ccc(Br)cc1 (stereo unspecified)	inactive: -16.7%
CCc1ccc(OP(C)(=O)O)cc1	inactive: 4.7%
COc1ccccc1OP(C)(=O)Nc1ccc(C)cc1C (stereo unspecified)	inactive: 1.33%
O=[N+]([O-])c1cc([N+](=O)[O-])c(Nc2ccccn2)c([N+](=O)[O-])c1	inactive: 9.96%
Cc1c(NP(C)(=O)Oc2ccc(C(C)C)cc2)c(=O)n(-c2ccccc2)n1C (stereo unspecified)	inactive: -0.065%
CP(=O)(Oc1ccccc1)N1CCOC1=O (stereo unspecified)	inactive: -12.9%
CCc1ccc(OP(C)(=O)Nc2cccnc2)cc1 (stereo unspecified)	inactive: 2.37%
COc1ccccc1OP(C)(=O)Nc1c(C)n(C)n(-c2ccccc2)c1=O (stereo unspecified)	inactive: 4.32%
O=C(OCCCN1CCCC1)C(O)(c1ccccc1)C1CCCCC1 (stereo unspecified)	inactive: 6.65%
CCN(CC)CC(O)COC(=O)C(O)(c1ccccc1)C1CCCCC1 (stereo unspecified)	inactive: -0.391%
COc1ccc(OP(C)(=O)Nc2ccc(Br)cc2)cc1 (stereo unspecified)	inactive: 0.003%
CN(C)C(=O)c1c([N+](=O)[O-])cc([N+](=O)[O-])cc1[N+](=O)[O-]	inactive: 4.66%
CC(C)(C)c1ccc(OP(C)(=O)O)cc1	inactive: 3.66%
COc1ccccc1OP(C)(=O)Nc1ccccc1Br (stereo unspecified)	inactive: 5.41%
CP(=O)(OC12CC3CC(CC(C3)C1)C2)OC12CC3CC(CC(C3)C1)C2	inactive: -37.9%
CCOC(=O)c1ccc(NP(C)(=O)Oc2ccc(Cl)cc2)cc1 (stereo unspecified)	inactive: -2%
